Test results reported in publication PMC5036187 (Scientific Reports, 2016).
Substitutions are numbered along the chain they refer to.

B1: humanized YP9.1 version c immunotoxin (hYP9.1c scFv fused to PE38) (scFv, V domains shown)
VH: EVQLVESGGGLVQPGGSLRLSCAASGFNFNTNAMNWVRQAPGKGLEWVGRVRNKTNNYATYYADSVKDRFTISRDDSKRMVYLQMNSLKTEDTAVYYCVAGNSFAYWGQGTLVTVS
VL: DIVMTQSPDSLAVSLGERATINCKSSQSLLYSSNQKNYLAWYQQKPGQPPKLLIYWASTRESGVPDRFSGSGSGTDFTLTISSLQAEDVAVYYCQQYYNYPLTFGQGTKLEIK
B2: humanized YP9.1 version b immunotoxin (hYP9.1b scFv fused to PE38) (scFv, V domains shown)
VH: B1 VH with R79N, M80S, V81L
VL: B1 VL
B3: YP9.1 immunotoxin (mouse YP9.1 scFv fused to PE38) (scFv, V domains shown)
VH: EVQLVETGGGLVQPEGSLKLSCATSGFNFNTNAMNWVRQAPGKGLEWVARVRNKTNNYATYYADSVKDRFTISRDDSQRMVFLQMNNLKTEDTAIYYCVAGNSFAYWGQGTLVTVSP
VL: not shown

Tests used:
[1] = molecular target: Glypican-3 (GPC3) on liver cancer cell lines (HepG2; Hep3B) (Homo sapiens (endogenous, HepG2), UniProt P51654); test: cell-based or functional assay
[2] = molecular target: Glypican-3 (GPC3) on GPC3+ cells (cell line not stated for these values) (Homo sapiens, UniProt P51654); test: flow cytometry on cells

| Binder | cytotoxicity against HepG2 cells, fold loss after humanization [1] [fold] | cytotoxicity against Hep3B cells, fold loss after humanization (against YP9.1IT) [1] [fold] | cytotoxicity against HepG2 cells, fold loss after humanization (against YP9.1IT) [1] [fold] | EC50 [2] [nM] |
| --- | --- | --- | --- | --- |
| B1 | 2.9 | – | – | – |
| B2 | – | 2.5 | 5.2 | 6.7 |
| B3 | – | – | – | 1.8 |
